pEC50: −log10 of the molar value.
Tests used:
[1] = system: Influenza A virus; assay: Antiviral activity against amantadine-sensitive Influenza A virus (A/chicken/Hubei/327/2004(H5N1)) infected in MDCK cells after 40 mins by crystal violet staining-based plaque reduction assay
[2] = Selectivity index, ratio of CC50 for MDCK cells to EC50 for amantadine-sensitive Influenza A virus (A/chicken/Hubei/327/2004(H5N1)); conditions: dog

O=[N+]([O-])c1ccc(S(=O)(=O)NCc2csc3ccccc23)cc1
pEC50 [1]: 5.86
Ratio CC50/EC50 [2]: > 139

Cc1cc(CNS(=O)(=O)c2ccc(C#N)cc2)c(C)s1
pEC50 [1]: 6.21
Ratio CC50/EC50 [2]: > 351

O=[N+]([O-])c1ccc(S(=O)(=O)NCc2ccoc2)cc1
pEC50 [1]: 4.33
Ratio CC50/EC50 [2]: > 5

O=S(=O)(NCc1csc2ccccc12)c1ccc(F)cc1
pEC50 [1]: 5.47
Ratio CC50/EC50 [2]: 28.8

Cc1cc(CNS(=O)(=O)c2ccc(Cl)cc2)c(C)o1
pEC50 [1]: 5.86
Ratio CC50/EC50 [2]: 40.7

O=S(=O)(NCc1csc2ccccc12)c1ccc(Cl)cc1
pEC50 [1]: 5.70
Ratio CC50/EC50 [2]: 35.1

N#Cc1ccc(S(=O)(=O)NCc2csc3ccccc23)cc1
pEC50 [1]: 4.69
Ratio CC50/EC50 [2]: 6

O=S(=O)(NCc1cc2ccccc2s1)c1ccc(F)cc1
pEC50 [1]: < 4.00

O=[N+]([O-])c1ccc(S(=O)(=O)NCc2ccsc2)cc1
pEC50 [1]: 5.83
Ratio CC50/EC50 [2]: 94.4

O=S(=O)(NCc1cc2ccccc2s1)c1ccc(C(F)(F)F)cc1
pEC50 [1]: 4.35
Ratio CC50/EC50 [2]: > 4

N#Cc1ccc(S(=O)(=O)NCc2cc3ccccc3s2)cc1
pEC50 [1]: < 4.00

NC12CC3CC(CC(C3)C1)C2 [AMANTADINE]
pEC50 [1]: 6.37

Cc1cc(CNS(=O)(=O)c2ccc([N+](=O)[O-])cc2)c(C)o1
pEC50 [1]: 5.97
Ratio CC50/EC50 [2]: > 144

O=S(=O)(NCc1cc2ccccc2s1)c1cccc(F)c1
pEC50 [1]: < 4.00

Cc1cc(CNS(=O)(=O)c2ccc([N+](=O)[O-])cc2)c(C)s1
pEC50 [1]: 5.89
Ratio CC50/EC50 [2]: > 158

CCOC(=O)C1=C[C@@H](OC(CC)CC)[C@H](NC(C)=O)[C@@H](N)C1.O=P(O)(O)O [OSELTAMIVIR PHOSPHATE]
pEC50 [1]: 6.41

Cc1cc(CNS(=O)(=O)c2ccc(Br)cc2)c(C)s1
pEC50 [1]: 6.33
Ratio CC50/EC50 [2]: 120

O=S(=O)(NCc1cc2ccccc2s1)c1ccccc1F
pEC50 [1]: < 4.00

O=S(=O)(NCc1cc2ccccc2s1)c1ccc(Br)cc1
pEC50 [1]: 4.39
Ratio CC50/EC50 [2]: > 4.3

Cc1cc(CNS(=O)(=O)c2ccc(F)cc2)c(C)o1
pEC50 [1]: 5.09
Ratio CC50/EC50 [2]: 17.1

Cc1cc(CNS(=O)(=O)c2ccc(Br)cc2)c(C)o1
pEC50 [1]: 5.74
Ratio CC50/EC50 [2]: 16.5

Cc1ccc(S(=O)(=O)NCc2cc3ccccc3s2)cc1
pEC50 [1]: 4.38
Ratio CC50/EC50 [2]: > 5

O=S(=O)(NCc1csc2ccccc12)c1ccc(Br)cc1
pEC50 [1]: 5.14
Ratio CC50/EC50 [2]: 12.1

O=S(=O)(NCc1csc2ccccc12)c1ccc(C(F)(F)F)cc1
pEC50 [1]: 4.41
Ratio CC50/EC50 [2]: 2.5

O=[N+]([O-])c1ccc(S(=O)(=O)NCc2cccs2)cc1
pEC50 [1]: 5.72
Ratio CC50/EC50 [2]: 69.8

Cc1cc(CNS(=O)(=O)c2ccc(C#N)cc2)c(C)o1
pEC50 [1]: 5.39
Ratio CC50/EC50 [2]: 26.1

Cc1cc(CNS(=O)(=O)c2ccc(Cl)cc2)c(C)s1
pEC50 [1]: 6.15
Ratio CC50/EC50 [2]: 75.5

Cc1ccc(S(=O)(=O)NCc2csc3ccccc23)cc1
pEC50 [1]: 4.98
Ratio CC50/EC50 [2]: > 20

O=[N+]([O-])c1ccc(S(=O)(=O)NCc2cc3ccccc3s2)cc1
pEC50 [1]: 4.30
Ratio CC50/EC50 [2]: > 3.8

O=S(=O)(NCc1cc2ccccc2s1)c1ccc(Cl)cc1
pEC50 [1]: < 4.00

O=[N+]([O-])c1ccc(S(=O)(=O)NCc2ccc(Cl)s2)cc1
pEC50 [1]: 4.15
Ratio CC50/EC50 [2]: 1.8

O=S(=O)(NCc1csc2ccccc12)c1ccccc1F
pEC50 [1]: < 4.00

O=S(=O)(NCc1csc2ccccc12)c1cccc(F)c1
pEC50 [1]: < 4.00

CC(=O)c1ccc(S(=O)(=O)NCc2csc3ccccc23)cc1
pEC50 [1]: 4.92
Ratio CC50/EC50 [2]: > 16

Cc1cc(CNS(=O)(=O)c2ccc(F)cc2)c(C)s1
pEC50 [1]: < 4.00

From ChEMBL document CHEMBL4480367 (Medchemcomm, 2019)
